Anti-infective test results gathered from many reports (values: NIAID ChemDB through PubChem).

Shared fields: whole-cell or culture tests; organism: Mycobacterium tuberculosis

Blank or dashed fields: not listed here.

SMILES,strain,cell line,read by,conditions,endpoint,dose,value
CN=C1NC(=O)CC(C(=O)Nc2ccc3ccccc3c2)S1,Clinical isolate,,resazurin,,MIC,,4 µg/mL
CCOC(=O)c1ccc2cccnc2c1O,M 607,,,,MIC50,,25 µg/mL
N#C/C(=C\c1ccc([N+](=O)[O-])o1)c1ccccc1,H37Rv,,BACTEC,,inhibition,12.5 µg/mL,16%
CC(C)N=c1cc2n(-c3ccc(Cl)cc3)c3ccccc3nc-2cc1Nc1ccc(Cl)cc1,Praha 1,,,,MIC,,0.53 µM
CS(=O)(=O)c1ccc(C(=O)SSC(=O)c2ccc(S(C)(=O)=O)cc2)cc1,H37Rv,,,,MIC,,>100 µg/mL
Cc1cc(C(=O)CCCCOc2ccc(C3=NCCO3)cc2)c(C)n1C,H37Rv,,BACTEC,,inhibition,6.25 µg/mL,24%
Cc1c(C(=O)c2ccccc2)[n+](=O)c2cc(Cl)ccc2n1[O-],H37Rv,VERO,BACTEC,,EC50,,<6.25 µg/mL
C[C@H]1COc2c(N3CCN(C)CC3)c(F)cc3c(=O)c(C(=O)O)cn1c23,37 strains (drug-resistant),,,,MIC90,,1 µg/mL
CO[C@H]1/C=C/O[C@@]2(C)Oc3c(C)c(O)c4c(O)c(c(/C=N/N5CCN(C)CC5)c(O)c4c3C2=O)NC(=O)/C(C)=C\C=C\[C@H](C)[C@H](O)[C@@H](C)[C@@H](O)[C@@H](C)[C@H](OC(C)=O)[C@@H]1C,TN800,,,,MIC,,>32 µg/mL
OCCN1CCOCC1,H37Rv,,,,MIC,,>100 µg/mL
Cc1c2oc3c(C)ccc(C(=O)NCc4cccnc4)c3nc-2c(C(=O)NCc2cccnc2)c(N)c1=O,H37Rv,,BACTEC,,MIC bound,,>12.5 µg/mL
NNC(=O)c1ccncc1,29197,,,,MIC,,≥0.2 µg/mL
Cc1ccc(O)c2ncccc12,H37Rv,,,,MIC50,,0.5–1 µg/mL
COc1cccc(OC)c1C(=O)O,H37Rv,,,,MIC,,>100 µg/mL
O=C(Oc1ccc(Cl)cc1C(=O)Nc1ccc(Cl)c(Cl)c1)c1cnccn1,multidrug resistant 9449/2006,,,14 d,MIC,,0.5 µM
CC(=O)c1c(CN2CCN(c3ccc(Cl)cc3)CC2)n([O-])c2cc(Cl)c(Cl)cc2[n+]1=O,H37Rv,,BACTEC,,inhibition,6.25 µg/mL,0%
O=C1Nc2cc(O)c(C(=O)O)cc2C1=O,H37Rv,,BACTEC,,inhibition,12.5 µg/mL,34%
Cc1ccc(Cn2nnc(-c3cc([N+](=O)[O-])cc([N+](=O)[O-])c3)n2)cc1,7357/1998,,,21 d,MIC,,0.125 µM
CCN(CC)Cc1c(C)[nH]c2cc(OC)ccc2c1=O,H37Rv,,,,MIC,,>100 µg/mL
NC(=Nc1ccc(S(=O)(=O)Nc2cnc3ccccc3n2)cc1)/N=C(\N)Nc1ccc(Br)cc1,H37Rv,,resazurin,,inhibition,6.25 µg/mL,99%
COc1ccc(OC)c(/C=N/N=c2/scc(-c3cc4cc(Br)ccc4oc3=O)n2C2CCCCC2)c1,H37Rv,,,,MIC,,>6.25 µg/mL
COc1nc2cc(C)c(Br)cc2cc1C(c1ccccc1)C(O)(CCN(C)C)c1cccc2ccccc12,H37Rv,,,,MIC90,,1.8 µg/mL
Cc1ccc2c(c1)[n+](=O)c(C(=O)c1ccccc1)c(C)n2[O-],H37Rv,VERO,BACTEC,,MIC,,6.25 µg/mL
CC(=O)Nc1ccccn1,H37Rv,,,,MIC,,>100 µg/mL
NC(=O)c1cnccn1,T7505,,,,MIC,,30 µg/mL
C[C@H]1COc2c(N3CCN(C)CC3)c(F)cc3c(=O)c(C(=O)O)cn1c23,001-012 (drug-resistant),,,,MBC,,0.75 µg/mL
CC(=O)c1c(CN2CCN(c3ccc([N+](=O)[O-])cc3)CC2)n([O-])c2ccccc2[n+]1=O,H37Rv,,BACTEC,,EC50,,>6.25 µg/mL
O=C(Oc1ccc(Br)cc1C(=O)Nc1ccc(C(F)(F)F)cc1)c1cnccn1,multidrug resistant 53/2009,,,21 d,MIC,,1 µM
COc1ccc(/C=N/N=c2/scc(-c3cc4cc(Br)ccc4oc3=O)n2C2CCCCC2)cc1OC,H37Rv,,,,MIC,,>6.25 µg/mL
OCCCCCCCCO,H37Rv,,,,MIC,,>100 µg/mL
O=C(Oc1ccc(Cl)cc1C(=O)Nc1cccc(C(F)(F)F)c1)c1cnccn1,extensively drug resistant Praha 131,,,14 d,MIC,,1 µM
O=c1[nH]cnc2nc(N3CCN(c4ccccc4)CC3)sc12,H37Rv,,resazurin,,inhibition,6.25 µg/mL,11%
CC(=O)c1c(O)ccc2ccccc12,H37Rv,,,,MIC,,50 µg/mL
CC1CCN(C(=O)c2ccc(NC(=O)C3CC(=O)OC34CCCCC4)cc2)CC1,Clinical isolate,,resazurin,,MIC,,8 µg/mL
Oc1c(Br)cc(Br)c2cccnc12,H37Rv,,,,MIC50,,5 µg/mL
NC(N)=NC(N)=NC1CCCCC1,,,resazurin,,inhibition,6.25 µg/mL,-17%
COc1cc(-c2nn3c(C(C)(C)C)nnc3s2)cc(OC)c1OC,Clinical isolate,,resazurin,,MIC,,16 µg/mL
CCSC(=N)c1ccc(O)c(O)c1.O=S(=O)(O)O,H37Rv,,,,MIC,,>100 µg/mL
O=c1oc2ccc(Br)cc2cc1-c1cs/c(=N/N=C/c2cc([N+](=O)[O-])ccc2O)n1C1CCCCC1,H37Rv,,,,MIC,,>6.25 µg/mL
COc1nc2ccc(Br)cc2cc1C(c1ccccc1)C(O)(CCN(C)C)c1ccc2c3c(cccc13)CC2,H37Rv,,,,MIC90,,58.16 µg/mL
Cc1ccc(NC(=O)CSc2nnc(-c3ccco3)o2)cc1F,Clinical isolate,,resazurin,,MIC,,16 µg/mL
CC(=O)c1c(CN2CCN(c3ccc(Cl)cc3)CC2)n([O-])c2ccccc2[n+]1=O,H37Rv,,BACTEC,,inhibition,6.25 µg/mL,0%
O=C(O)c1ccc2cccnc2c1O,M 607,,,,MIC50,,>25 µg/mL
CCCn1c(-c2nnc(C(C)C)o2)cc2ccccc21,18b,,resazurin,,MIC,,2 µg/mL
COc1ccc(N2CCN(Cc3c(C(C)=O)[n+](=O)c4ccccc4n3[O-])CC2)cc1,H37Rv,,BACTEC,,inhibition,6.25 µg/mL,0%
O=c1[nH]c2ccc([N+](=O)[O-])cc2c2nc3ccccc3n12,H37Rv,,BACTEC,,MIC bound,,>12.5 µg/mL
O=C(Oc1cc(Cl)ccc1C(=O)Nc1ccc(F)cc1)c1cnccn1,H37Rv 331/88,,,21 d,MIC,,8 µM
COc1cc(NCCCCN2C(=O)c3ccccc3C2=O)c2ncccc2c1,H37Rv,,,,MIC,,12.5 µg/mL
COc1nc2ccc(Br)cc2cc1C(c1ccccc1)C(O)(CCN1CCCCC1)c1ccc2ccccc2c1,H37Rv,,,,MIC90,,59.56 µg/mL
C[C@@H]1CN(c2c(F)c(N)c3c(=O)c(C(=O)O)cn(C4CC4)c3c2F)C[C@H](C)N1,900145,,,,MIC,,0.5 µg/mL
Nc1ccc(N(c2ccc(N)cc2)c2ccc(N)cc2)cc1,H37Rv,,,,MIC,,50 µg/mL
NC(=S)NNC(=O)c1ccc([N+](=O)[O-])cc1,H37Rv,,BACTEC,,inhibition,12.5 µg/mL,97%
CO/N=C1\CN(c2nc3c(cc2F)c(=O)c(C(=O)O)cn3C2CC2)CC1CN,45 strains (drug-susceptible),,,,MIC90,,>4 µg/mL
COc1nc2ccc(Br)cc2cc1C(c1ccccc1)C(O)(CCN1CCCCC1)c1cccc2ccccc12,H37Rv,,,,MIC90,,59.56 µg/mL
Nc1ccc(S(=O)O)cc1,H37Rv,,,,MIC,,>100 µg/mL
CN[C@@H]1[C@@H](O)[C@@H](O[C@@H]2[C@@H](O)[C@H](O[C@H]3O[C@H](CN)CC[C@H]3N)[C@@H](N)C[C@H]2N)OC[C@]1(C)O,Praha 131,,,,MIC,,>8.37 µM
CC[C@@H](CO)NCCN[C@@H](CC)CO,CDC1551,,broth dilution,,MIC,,8 µg/mL
Cc1ccc(/C=N/NC(=O)c2ccncc2)cc1,H37Rv,,resazurin,,MIC bound,,<6.25 µg/mL
Cc1cccc(C2C(=S)NC(=O)C3=C2NCN(CCc2ccccc2)C3)n1,18b,,resazurin,,MIC,,16 µg/mL
CCOC1=NN(C(N)=S)C(=O)C1,H37Rv,,,,MIC,,>100 µg/mL
COc1ccc(N2CCN(Cc3c(C(C)=O)[n+](=O)c4cc(C)c(C)cc4n3[O-])CC2)cc1,H37Rv,,BACTEC,,inhibition,6.25 µg/mL,0%
O=C(O)C(O)(O)C(O)(O)C(=O)O.[Na+],H37Rv,,,,MIC,,>100 µg/mL
NNOC(=O)c1ccc2cccnc2c1O,H37Rv,,,,MIC50,,>10 µg/mL
CC1=CC(=N/Cl)/C=CC/1=N\Cl,H37Rv,,BACTEC,,inhibition,12.5 µg/mL,5%
CCN(CC)CCCNc1ncnc2ccccc12,H37Rv,,,,MIC,,>100 µg/mL
COc1nc2ccc(Br)cc2cc1C(c1ccccc1)C(O)(CC[N+](C)(C)[O-])c1ccccc1,H37Rv,,,,MIC90,,16.49 µg/mL
CC1(C)N=C(c2ccccc2)C(=O)N1CC(=O)Nc1ccc2c(c1)OCO2,18b,,resazurin,,MIC,,>16 µg/mL
CCc1ccc(O)cc1O,H37Rv,,,,MIC,,>100 µg/mL
C=CCN1C(=O)CC(=O)N(NC2=NNC3(C(=O)N2)c2ccccc2-c2ccccc23)C1=S,H37Rv,,BACTEC,,MIC bound,,>12.5 µg/mL
CO[C@H]1/C=C/O[C@@]2(C)Oc3c(C)c(O)c4c(O)c(c(/C=N/N5CCN(C)CC5)c(O)c4c3C2=O)NC(=O)/C(C)=C\C=C\[C@H](C)[C@H](O)[C@@H](C)[C@@H](O)[C@@H](C)[C@H](OC(C)=O)[C@@H]1C,91196,,,,MIC,,≥2 µg/mL
O=C([C@@H](O)CO)N1CC=C(c2c(F)cc(N3C[C@H](COc4ccon4)OC3=O)cc2F)CC1,H37Rv CDC1551,,broth dilution,,MIC,,0.5 µg/mL
CC(=O)c1c(CN2CCN(c3ccc(Cl)cc3)CC2)n([O-])c2cc(C)c(C)cc2[n+]1=O,H37Rv,,BACTEC,,EC50,,>6.25 µg/mL
Nc1ccc(C(=O)O)c(O)c1,H37Rv 331/88,,,14 d,MIC,,62.5 µM
NC(=O)c1cnccn1,H37Rv,,BACTEC,,MIC,,≥12.5 µg/mL
O=C(Oc1cc(Cl)ccc1C(=O)Nc1ccc(C(F)(F)F)cc1)c1cnccn1,multidrug resistant 9449/2006,,,21 d,MIC,,0.25 µM
O=C1C(Cl)=C(N2CCN(C3=C(Cl)C(=O)c4ccccc4C3=O)CC2)C(=O)c2ccccc21,H37Rv,,BACTEC,,inhibition,12.5 µg/mL,22%
Cl.NCCCc1ccccc1,H37Rv,,,,MIC,,100 µg/mL
COc1cc(OC)c2c(c1)Oc1cc(OC)cc(OC)c1C2,H37Rv,,BACTEC,,MIC bound,,>12.5 µg/mL
CCCC(O)(C#CC(O)(CCC)CCC)CCC,H37Rv,,,,MIC,,>100 µg/mL
C=CN1C(=O)OC(c2ccccc2)C1c1ccccc1,H37Rv,,BACTEC,,inhibition,12.5 µg/mL,0%
CC(C)(O)C#CC(C)(C)O,H37Rv,,,,MIC,,>100 µg/mL
CCN(CC)CCNc1ccc(C)c2sc3ccc(OC)cc3c(=O)c12,H37Rv,,BACTEC,,inhibition,12.5 µg/mL,100%
NNC(=O)c1ccncc1,H37Rv (ATCC 35811),,broth dilution,,MIC,,0.03 µg/mL
Cc1ccc(C)c(NC(=O)CC/C(=N\NC(=O)C(=O)NN)C(C)C(=O)c2ccc(O)cc2)c1,H37Rv,,BACTEC,,inhibition,12.5 µg/mL,24%
O=c1oc2ccccc2cc1-c1cs/c(=N/N=C/c2ccc(Cl)c(Cl)c2)n1C1CCCCC1,H37Rv,,,,inhibition,6.25 µg/mL,42%
COc1ccc2c(c1)C(OC)C1c3c(cc4c(c3-2)OCO4)CCN1C.Cl,H37Rv,,BACTEC,,inhibition,12.5 µg/mL,86%
Cc1ccc(Nc2ccc(Nc3ccc(C)cc3)c3c2C(=O)c2c(O)ccc(O)c2C3=O)cc1,H37Rv,,,,MIC,,>100 µg/mL
COc1cccc2c1C(=O)c1c(O)c3c(c(O)c1C2=O)CC(O)(C(C)=O)CC3OC1CC(NCC2(O)OCC(O)C2O)C(O)C(C)O1,H37Rv,,BACTEC,,inhibition,12.5 µg/mL,56%
Fc1ccc(Cl)c(-c2noc(-c3ccc4nncn4c3)n2)c1,Clinical isolate,,resazurin,,MIC,,8 µg/mL

A number after MIC or MFC names an inhibition level or a share of isolates. Percent inhibition refers to the dose given; in toxicity tests it is the harm to the cells. Neighbouring rows are from separate reports. Two numbers with a dash give a range or band. MIC bound: limit read from a one-dose screen. ECn is the concentration giving n% inhibition of infection, replication or growth.